Results of unrelated studies side by side (data: NIAID ChemDB).

Common to all: tests in culture; organism: Mycobacterium tuberculosis

A number after MIC or MFC names an inhibition level or a share of isolates.

SMILES	strain or isolate	method	tested at	endpoint	value
CC(C)=C(Cl)c1c(C)cc(C)c(CC(N)=O)c1C	H37Rv	-	-	MIC	>100 µg/mL
CO[C@H]1/C=C/O[C@@]2(C)Oc3c(C)c(O)c4c(=O)c(c5oc6cc(N7CCN(C(C)C)CC7)cc(=O)c6nc5c4c3=C2O)NC(=O)/C(C)=C\C=C\[C@H](C)[C@H](O)[C@@H](C)[C@@H](O)[C@@H](C)[C@H](OC(C)=O)[C@@H]1C	33 (rifampin-resistant)	-	-	MIC	0.1 µg/mL
C/C=C/C(C(=O)NC(N)=O)C(C)C	H37Rv	BACTEC	-	MIC bound	>12.5 µg/mL
CCCCCC(C)NCCNc1cccc2ncccc12	-	-	-	MIC	6.25 µM
CCN(CC)c1ccc2nc(C)cc(C)c2c1	H37Rv	-	-	MIC	50 µg/mL
Clc1ccc(CCNCCNC2CCCCC2)c(Cl)c1	-	-	-	MIC	50 µM
C1=C(CCNCCNCCCc2ccccc2)CCCC1	-	-	-	MIC	12.5 µM
COc1ccc(C2Oc3cc(F)ccc3C(=O)C2OC(C)=O)cc1	-	-	12.5 µg/mL	inhibition	50%
NC1CCN(c2nc3c(cc2F)c(=O)c(C(=O)O)cn3-c2ccc(F)cc2F)C1	Drug-resistant	-	-	MBC90	>8 µg/mL
Cc1ccc(S(=O)(=O)Nc2ccc(NC(=O)CC(=O)c3ccc(Cl)cc3)cc2)cc1	H37Rv	-	-	MIC	>100 µg/mL
NCC[C@H](O)C(=O)N[C@@H]1C[C@H](N)[C@@H](O[C@H]2O[C@H](CN)[C@@H](O)[C@H](O)[C@H]2O)[C@H](O)[C@H]1O[C@H]1O[C@H](CO)[C@@H](O)[C@H](N)[C@H]1O	TN3605 (W1)	-	-	MIC	>256 µg/mL
COC(=O)C1=C(\N2CCCC2)CC(C)(C)CC(=O)/C=C\1C(=O)OC	H37Rv	BACTEC	12.5 µg/mL	inhibition	-9%
NC(CCCCO)C(=O)O	H37Rv	-	-	MIC	>100 µg/mL
CCCCC(CC)CN1CN(CC(CC)CCCC)CC(C)(NCCNCCc2ccc(OC)cc2)C1	-	-	-	MIC	12.5 µM
CC1CCCCC1NCCNCCC(c1ccccc1)c1ccccc1	-	-	-	MIC	6.25 µM
N#CCCN1C(=O)c2ccccc2C1=O	H37Rv	-	-	MIC	>100 µg/mL
O=C1CCCN1CCCNCCNCCCc1ccccc1	-	-	-	MIC	50 µM
O=C(Nn1cnnc1)c1ccccc1O	H37Rv	-	-	MIC	>100 µg/mL
CCOC(=O)Nc1cc(NC(c2ccc(Cl)cc2)c2ccc(Cl)cc2)c2c(n1)NCN2	H37Rv	-	-	EC50	<12.5 µg/mL
CC[C@H]1OC(=O)[C@H](C)[C@@H](O[C@H]2C[C@@](C)(OC)[C@@H](O)[C@H](C)O2)[C@H](C)[C@@H](O[C@@H]2O[C@H](C)C[C@H](N(C)C)[C@H]2O)[C@](C)(O)C[C@@H](C)CN(C)[C@H](C)[C@@H](O)[C@]1(C)O	ATCC 35830	-	-	MIC	>8 µg/mL
C/C=C(\C)c1cc(=O)c2c(C)cc3c(c2o1)C(=O)c1c(O)c([C@H]2C[C@](C)(N(C)C)[C@H](OC(C)=O)[C@H](C)O2)cc([C@H]2C[C@@H](N(C)C)[C@H](OC(C)=O)[C@@H](C)O2)c1C3=O	H37Rv	BACTEC	-	MIC bound	>12.8 µg/mL
COc1ccccc1CCNCCN[C@H]1C[C@H]2CC[C@]1(C)C2(C)C	-	-	-	MIC	50 µM
C[C@H]1C[C@H](N)CN1c1cc2c(cc1F)c(=O)c(C(=O)O)cn2-c1ccc(F)cc1F	MDR	-	-	MIC50	>8 µg/mL
CC(C)c1ccc2c(c1)CC[C@H]1[C@](C)(CNCCNCCc3ccc(O)cc3)CCC[C@]21C	-	-	-	MIC	25 µM
Cc1ccc(-c2ccccc2)n1-c1ccc(Br)cc1	H37Rv	-	-	MIC	>100 µg/mL
CCN(CC)CCNc1ccc(CO)c2oc3ccc(O)cc3c(=O)c12	H37Rv	BACTEC	-	MIC bound	>12.5 µg/mL
Nc1ccc(C(=O)/C=C/c2ccccc2)cc1	H37Rv	-	12.5 µg/mL	inhibition	5%
O=C1/C=C2/C=CC=CN2C(=O)/C=C2/C=CC=CN12	H37Rv	BACTEC	12.5 µg/mL	inhibition	1%
CO[C@H]1/C=C/O[C@@]2(C)Oc3c(C)c(O)c4c(O)c(c(/C=N/N5CCN(C/C=C/c6ccccc6)CC5)c(O)c4c3C2=O)NC(=O)/C(C)=C\C=C\[C@H](C)[C@H](O)[C@@H](C)[C@@H](O)[C@@H](C)[C@H](OC(C)=O)[C@@H]1C	2219 (rifampin-resistant)	-	-	MIC	0.4 µg/mL
CCOc1ccccc1CNCCNCCCCc1ccccc1	-	-	-	MIC	50 µM
NC(=O)NC1NC(=O)NC1=O	H37Rv	-	-	MIC	100 µg/mL
O=C(O)c1nc(N=Nc2ccccc2)[nH]c1C(=O)O	H37Rv	resazurin	-	MIC bound	>6.25 µg/mL
O=C(/C=C/c1cc2ccccc2c2ccccc12)c1cccc(O)c1	-	-	-	EC50	<12.5 µg/mL
O=C(Nc1ccc(C(=O)c2ccccc2)cc1)c1ccccc1	H37Rv	-	-	MIC	>100 µg/mL
Cc1cc(N=Nc2c(N)c(C)cc(N=Nc3ccc(C(N)=O)cc3)c2N)ccc1N=Nc1cc(C(=O)O)c(O)c(S(=O)(=O)O)c1	H37Rv	resazurin	-	MIC bound	>6.25 µg/mL
CC(C)=CCC/C(C)=C/CNCCN1CC2(C)CC1CC(C)(C)C2	-	-	-	MIC	12.5 µM
CCCCC(CC)CN1CN(CC(CC)CCCC)CC(C)(NCCNCCc2ccc(O)cc2)C1	-	-	-	MIC	25 µM
Cc1cc(C(=O)[O-])c(C)n1-c1ccc(S(=O)(=O)c2ccc(-n3c(C)cc(C(=O)[O-])c3C)cc2)cc1.O.O.O.O.[K+].[K+]	H37Rv	-	-	MIC	100 µg/mL
COc1cc2c(c(OC)c1O)C(=O)CC(c1ccc(O)cc1)O2	H37Rv	BACTEC	-	MIC bound	>12.5 µg/mL
C[C@H]1COc2c(N3CCN(C)CC3)c(F)cc3c(=O)c(C(=O)O)cn1c23	ATCC35838	-	-	MBC	0.25 µg/mL
CC(C)=CCC/C(C)=C/CNCCNC1CCCCCCC1	-	-	-	MIC	25 µM
C=CCNc1nc(NC(=O)OCC)cc(N)c1[N+](=O)[O-]	H37Rv	-	-	EC50	>12.5 µg/mL
COc1c2c(cc3c1C1Oc4c(ccc(O)c4CC=C(C)C)C1CO3)OC(C)(C)C=C2	TAC-R	-	-	MIC	12.5 µg/mL
CC1(C)[C@H]2CC[C@@H](CNCCNCCCCCO)[C@@H]1C2	-	-	-	MIC	50 µM
O=C(/C=C/C(=O)N1CCOCC1)N1CCOCC1	H37Rv	-	-	MIC	>100 µg/mL
CCCCC(CC)CN1CN(CC(CC)CCCC)CC(C)(NCCNCCc2ccc(F)cc2)C1	-	-	-	MIC	12.5 µM
CN(C)c1ccc2c(Cl)cc(=O)[nH]c2c1.[K+].[OH-]	H37Rv	BACTEC	12.5 µg/mL	inhibition	21%
CC(N)c1ccccc1	H37Rv	-	-	MIC	>100 µg/mL
O=C(CSCC(=O)N/N=C/c1ccccc1O)N/N=C/c1ccccc1O	H37Rv	BACTEC	-	MIC bound	>12.5 µg/mL
COc1ccc(OC)c(CCNCCNCC(c2ccccc2)c2ccccc2)c1	-	-	-	MIC	6.25 µM
CCOC(=O)Nc1cc2c(c(N)n1)N=C(c1ccccc1OC)CO2	H37Rv	-	-	EC50	>12.5 µg/mL
Cc1ccccc1C(=O)O	H37Rv	-	-	MIC	50 µg/mL
CCOC(=O)Nc1cc(NCCc2ccc(S(N)(=O)=O)cc2)c(N)c(N)n1	H37Rv	-	12.5 µg/mL	inhibition	0%
COc1ccc(C2C3=C(N=C4SC(C(C)=O)=C(C)N42)c2ccccc2CC3)cc1	H37Rv	BACTEC	12.5 µg/mL	inhibition	78%
Nc1cc2ccc(S(=O)(=O)O)cc2cc1S(=O)(=O)O	H37Rv	-	-	MIC	100 µg/mL
NNC(=O)Cc1nc2ccccc2[nH]c1=O	H37Rv	BACTEC	12.5 µg/mL	inhibition	30%
CC[C@H]1OC(=O)[C@H](C)[C@@H](O[C@H]2C[C@@](C)(OC)[C@@H](O)[C@H](C)O2)[C@H](C)[C@@H](O[C@@H]2O[C@H](C)C[C@H](N(C)C)[C@H]2O)[C@](C)(O)C[C@@H](C)C(=O)[C@H](C)[C@@H](O)[C@]1(C)O	ATCC 35822	-	-	MIC	>8 µg/mL
O=[N+]([O-])c1cccc2cn[nH]c12	H37Rv	-	-	MIC	100 µg/mL
Cc1c2ccncc2c(C)c2c1[nH]c1ccc(O)cc12	H37Rv	resazurin	-	MIC bound	<6.25 µg/mL
CCOC(=O)Nc1cc2ncc(CNc3ccc(C(=O)OCC)cc3)nc2c(N)n1	H37Rv	-	12.5 µg/mL	inhibition	0%
CC(=O)O[C@H]1CC(=O)OC(C)(C)[C@@H]2CC(=O)[C@]3(C)[C@H](CC[C@@]4(C)[C@H](c5ccoc5)OC(=O)[C@H]5O[C@]543)[C@@]12C	H37Rv	BACTEC	12.5 µg/mL	inhibition	-19%
COc1ccccc1CCNCCNCCc1ccc(Cl)cc1Cl	-	-	-	MIC	50 µM
C=CCc1ccccc1O	H37Rv	-	-	MIC	>100 µg/mL
NC(=O)c1ccc(NC(=O)/C=C/C(=O)Nc2ccc(C(N)=O)cn2)nc1	H37Rv	-	-	MIC bound	>6.25 µg/mL
COc1ccc(CCNCCNCCCCc2ccccc2)cc1OC	-	-	-	MIC	50 µM
CC1NC(=O)C(NC(=O)OCc2ccccc2)COC(=O)C(C(C)C)NC(=O)CCCCNC1=O	H37Rv	resazurin	6.25 µg/mL	inhibition	-3%
N=C(N)c1ccccc1	H37Rv	-	-	MIC	>100 µg/mL
COC(=O)[C@]1(C)CCC[C@]2(C)C3=CC(O)[C@@]4(C(C)C)O[C@H]4[C@]3(O)CC[C@@H]12	H37Rv	BACTEC	-	MIC bound	>12.5 µg/mL
CC[C@@H](CO)NCCN[C@@H](CC)CO	MDR13	broth dilution / resazurin	-	MIC	32 µg/mL
CCOC(=O)C1(C(N)=O)CC1	H37Rv	-	-	MIC	>100 µg/mL
COC1CC2CCC(C)C(O)(O2)C(=O)C(=O)N2CCCCC2C(=O)OC(C(C)CC2CCC(O)C(OC)C2)CC(=O)C(C)C=C(C)C(OC(=O)CN(C)C)C(OC)C(=O)C(C)CC(C)\C=C/C=C\C=C/1C	H37Rv	BACTEC	-	MIC	≥12.5 µg/mL
CCOC(=O)/C(C#N)=C\c1c[nH]c2ccccc12	H37Rv	-	-	MIC	100 µg/mL
CCOc1cc(O)c(C(=O)/C=C/c2ccccc2)c(OCC)c1	-	-	12.5 µg/mL	inhibition	0%
CO[C@H]1/C=C/O[C@@]2(C)Oc3c(C)c(O)c4c(c3C2=O)C(=O)C(CO)=C(NC(=O)/C(C)=C\C=C\[C@H](C)[C@H](O)[C@@H](C)[C@@H](O)[C@@H](C)[C@H](OC(C)=O)[C@@H]1C)C4=O	H37Rv	BACTEC	-	MIC bound	≤12.5 µg/mL
Nc1ccc(S(N)(=O)=O)c(O)c1	H37Rv	-	-	MIC	100 µg/mL

For reference, 5 entries again:

SMILES | strain or isolate | method | tested at | endpoint | value
CCCCC(CC)CN1CN(CC(CC)CCCC)CC(C)(NCCNCCc2ccc(F)cc2)C1 | - | - | - | MIC | 12.5 µM
Cc1cc(N=Nc2c(N)c(C)cc(N=Nc3ccc(C(N)=O)cc3)c2N)ccc1N=Nc1cc(C(=O)O)c(O)c(S(=O)(=O)O)c1 | H37Rv | resazurin | - | MIC bound | >6.25 µg/mL
O=C1CCCN1CCCNCCNCCCc1ccccc1 | - | - | - | MIC | 50 µM
CCCCCC(C)NCCNc1cccc2ncccc12 | - | - | - | MIC | 6.25 µM
COc1ccc(OC)c(CCNCCNCC(c2ccccc2)c2ccccc2)c1 | - | - | - | MIC | 6.25 µM

An empty or dashed field is not shown. ECn: concentration that inhibits the pathogen or its effect by n%. MIC bound comes from a single tested concentration. Inhibition is in % at the dose shown (toxicity tests: loss of growth or viability). Neighbouring rows are from separate reports.